Anti-infective test results gathered from many reports (values: NIAID ChemDB through PubChem).

Shared fields: tests in culture; agent: Respiratory syncytial virus; read by: cytopathic effect; read-out: EC50

Rows are shuffled and stem from different studies. Blank or dashed fields: not listed here. ECn is the concentration giving n% inhibition of infection, replication or growth.

structure | strain or isolate | cell line | value
CCOC(=O)C1=CSc2nnc(-c3cn(-c4ccccc4)nc3-c3ccccc3)n2N=C1N | - | HeLa | >16 µg/mL
Cc1ccc(O)c(Cn2c(NC3CCN(CC(O)c4ccccc4)CC3)nc3c(C)cccc32)n1 | - | HeLa | 0.251 µM
c1ccc(C2=Nn3c(nnc3-c3cn(-c4ccccc4)nc3-c3ccccc3)SC2)cc1 | - | HeLa | >3.2 µg/mL
C=C(N=CC)c1nc(-c2cccc(C)c2)n([C@@H]2O[C@H](CO)[C@@H](O)[C@H]2O)n1 | LONG | HeLa | >100 µg/mL
O=C(/C=C/c1ccc(O)c(O)c1)O[C@@H]1CC(O)(C(=O)O)C[C@@H](OC(=O)/C=C/c2ccc(O)c(O)c2)C1O | LONG | HEP-2 | 0.068 µg/mL
Cc1ccc(O)c(Cn2c(NCCc3ccccn3)nc3ccccc32)n1 | - | HeLa | 50.1 µM
CC1(C)[C@@H](CCO)C[C@H]1n1nnc2c(=O)[nH]cnc21 | - | HeLa | >400 µg/mL
Cc1cc(C)c2nc(NCCc3ccc(S(N)(=O)=O)cc3)n(Cc3nc(C)ccc3O)c2c1 | - | HeLa | 63.1 µM
CC=NC(=N)c1nc(-c2ccc(C)cc2)n(Cc2ccccc2)n1 | LONG | HeLa | >20 µg/mL
Cc1ccc(O)c(Cn2c(NC3CCN(CC(N)=O)CC3)nc3c(C)cccc32)n1 | - | HeLa | 0.398 µM
Cc1ccc(O)c(Cn2c(NCCc3ccc(F)cc3)nc3ccccc32)n1 | - | HeLa | 100 µM
CC(C)(C)c1ccc2c(c1)CSSC2 | LONG | HeLa | >125.2 µM
NC(=O)CCN(CCC(N)=O)S(=O)(=O)c1cccc(Nc2nc(Nc3cccc(S(=O)(=O)N(CCC(N)=O)CCC(N)=O)c3)nc(Nc3ccc(-c4ccc(Nc5nc(Nc6cccc(S(=O)(=O)N(CCC(N)=O)CCC(N)=O)c6)nc(Nc6cccc(S(=O)(=O)N(CCC(N)=O)CCC(N)=O)c6)n5)cc4S(=O)(=O)O)c(S(=O)(=O)O)c3)n2)c1 | 71050/TYPE A | HEP-2 | 0.25 µg/mL
Cc1cc(C)c2nc(Nc3ccc(C#N)cc3)n(Cc3nc(C)ccc3O)c2c1 | - | HeLa | 100 µM
CC1(C)[C@@H](CCO)C[C@H]1n1nnc2c(N)ncnc21 | - | HeLa | >400 µg/mL
CC1(C)[C@@H](CO)CC[C@@]1(C)Cn1nnc2c(N)ncnc21 | - | HeLa | >400 µg/mL
c1ccc2c(c1)CSSC2 | LONG (A) | HeLa | 4.5 µM
CCCOc1ncn(-c2ccc(NC(=S)Nc3cccc(O)c3)cc2)n1 | LONG | HeLa | 40 µg/mL
O=c1cc(-c2ccc(O)c(O)c2)oc2cc(OC3OC(CO)C(O)C(O)C3O)cc(O)c12 | - | HEP-2 | >25 µg/mL
CCCOc1ncn(-c2ccc(NC(=S)NC3O[C@H](CO)[C@@H](O)[C@H](O)[C@H]3O)cc2)n1 | LONG | HeLa | 100 µg/mL
C=C(N=CC)c1nc(-c2ccc(OC)cc2)n(C2O[C@H](CO)[C@@H](O)[C@H](O)[C@H]2O)n1 | LONG | HeLa | 100 µg/mL
CC1(C)[C@@H](CO)CC[C@@]1(C)Cn1cnc2c(=O)[nH]cnc21 | - | HeLa | >400 µg/mL
CC(C)CS[C@H]1C[C@@H](n2cnc3c(N)ncnc32)[C@H](O)[C@@H]1O | - | HeLa | >80 µg/mL
C=C(N=CC)c1nc(-c2ccccc2)n(C2O[C@H](CO)[C@@H](O)[C@H](O)[C@H]2O)n1 | LONG | HeLa | 70 µg/mL
CCOC(=O)CSc1nnc(-c2cn(-c3ccccc3)nc2-c2ccccc2)n1N | - | HeLa | >16 µg/mL
CCC(CO)N1CCC(Nc2nc3c(C)cccc3n2Cc2nc(C)ccc2O)CC1 | - | HeLa | 0.063 µM
CC=NC(=N)c1nc(-c2cccc(OC)c2)n(COCCO)n1 | LONG | HeLa | ≥40 µg/mL
Cc1ccc(O)c(Cn2c(NC3CCN(CCCCC(N)=O)CC3)nc3c(C)cccc32)n1 | - | HeLa | 0.079 µM
CC1=Nn2c(nnc2-c2cn(-c3ccccc3)nc2-c2ccccc2)SC1 | - | HeLa | >3.2 µg/mL
CC1(C)[C@@H](CCO)C[C@H]1n1cnc2c(=O)[nH]c(N)nc21 | - | HeLa | >400 µg/mL
CC=NC(=N)c1nc(-c2ccccc2)n(C/C=C/c2ccccc2)n1 | LONG | HeLa | >20 µg/mL
Cc1ccc(O)c(Cn2c(NC3CCNCC3)nc3c(C)cccc32)n1 | - | HeLa | 0.002 µM
O=c1[nH]n2c(-c3cn(-c4ccccc4)nc3-c3ccccc3)nnc2sc1=O | - | HeLa | >80 µg/mL
CC1(C)[C@@H](CO)CC[C@@]1(C)Cn1cnc2c(N)ncnc21 | - | HeLa | >400 µg/mL
CCOc1ncn(-c2ccc(NC(=S)NC34CC5CC(CC(C5)C3)C4)cc2)n1 | LONG | HeLa | 8 µg/mL
S=c1[nH]n2c(-c3cn(-c4ccccc4)nc3-c3ccccc3)nnc2s1 | - | HeLa | >80 µg/mL
CCCOc1ncn(-c2ccc(NC(=S)Nc3cnccn3)cc2)n1 | LONG | HeLa | 4 µg/mL
O=C1CSc2nnc(-c3cn(-c4ccccc4)nc3-c3ccccc3)n2N1 | - | HeLa | >16 µg/mL
CCOC(=O)c1ccc(OCCCN2CCC(Nc3nc4c(C)cccc4n3Cc3nc(C)ccc3O)CC2)cc1 | - | HeLa | 0.501 µM